Target: GST-TAB2 protein substrate [GST: P08515]

B1: wild-type NleE (EPEC NleE) (protein)
chain: MINPVTNTQGVSPINTKYAEHVVKNIYPEIKHDYFNESPNIYDKKYISGITRGVAELKQEEFVNEKARRFSYMKTMYSVCPEAFEPISRNEASTPEGSWLTVISGKRPMGQFSVDSLYNPDLHALCELPDICCKIFPKENNDFLYIVVVYRNDSPLGEQRANRFIELYNIKRDIMQELNYELPELKAVKSEMIIAREMGEIFSYMPGEIDSYMKYINNKLSKIE
  methylase activity in the presence of Formula A, B or C (MTase glo assay): NLeE methylase activity was retained in the presence of all three formulations

From patent US20220306702
